Taken from: PubChem BioAssay AID1259414 (Drosophila RNAi Screening Center, 2018)
In all, the deposit lists about 24,000 reagents; shown is an unselected part of those that have a named target and a result. Of all reagents, about 1,210 (5%) got an active call. 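Inactive calls also include excluded dsRNAs with several or no targets, genes unexpressed in JW18, and well A1, regardless of score.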 Names joined by + are all predicted targets of the reagent. No sequences are given here.

Test: 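Host factors increasing or decreasing Wolbachia levels in cultured fly cells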 (primary screen)
System: Drosophila JW18 cells infected with Wolbachia
Reagent: long dsRNA against Drosophila genes, 0.25 µg dsRNA per well of a 384-well plate
Duration: 5 days
Challenge: cells persistently infected with Wolbachia before knock-down; no added drug
Read-out: 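Imaged fluorescence in situ signal for Wolbachia 23S rRNA per DAPI-counted host cell, given as a robust z-score within each plate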
Direction: Wolbachia per cell robust z: higher = more Wolbachia per host cell than the plate typical
Rule for the call: 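Active if absolute robust z reaches 1.5 in two or more of three replicates, leaving out multi- or no-target dsRNAs, genes unexpressed in JW18 and A1 wells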

After knock-down of indra [DRSC08558] the results were Wolbachia per cell robust z, rep 1 = 0.647; Wolbachia per cell robust z, rep 2 = 0.262; Wolbachia per cell robust z, rep 3 = -0.0436; inactive.
For indra [DRSC26845], the values are Wolbachia per cell robust z, rep 1 = -1.3; Wolbachia per cell robust z, rep 2 = -0.802; Wolbachia per cell robust z, rep 3 = -0.537; inactive.
Silencing of CG8066 [DRSC16374] gave: Wolbachia per cell robust z, rep 1 = 0.857; Wolbachia per cell robust z, rep 2 = -1.09; Wolbachia per cell robust z, rep 3 = 0.33; inactive.
CG8066 [DRSC24633] scored Wolbachia per cell robust z, rep 1 = 0.34; Wolbachia per cell robust z, rep 2 = 0.311; Wolbachia per cell robust z, rep 3 = -0.873; inactive.
After knock-down of RpS28a [DRSC15064] the results were Wolbachia per cell robust z, rep 1 = 0.398; Wolbachia per cell robust z, rep 2 = 0.567; Wolbachia per cell robust z, rep 3 = -3.9; inactive.
For upd3 [DRSC19636] the deposit lists Wolbachia per cell robust z, rep 1 = -3; Wolbachia per cell robust z, rep 2 = -0.444; Wolbachia per cell robust z, rep 3 = -0.215; inactive.
Depletion of upd3 [DRSC19968] gave: Wolbachia per cell robust z, rep 1 = -0.275; Wolbachia per cell robust z, rep 2 = 0.162; Wolbachia per cell robust z, rep 3 = -4.54; inactive.
With knock-down of upd3 [DRSC22169], the record shows Wolbachia per cell robust z, rep 1 = 0.184; Wolbachia per cell robust z, rep 2 = -0.598; Wolbachia per cell robust z, rep 3 = -0.172; inactive.
Trf4-1 [DRSC17775] gave Wolbachia per cell robust z, rep 1 = -1.91; Wolbachia per cell robust z, rep 2 = -5.03; Wolbachia per cell robust z, rep 3 = -3.73; inactive.
Klp67A + CG34456 [DRSC10420] scored Wolbachia per cell robust z, rep 1 = -3.51; Wolbachia per cell robust z, rep 2 = 0.149; Wolbachia per cell robust z, rep 3 = 0.0212; inactive.
For CG31388 [DRSC15254], the values are Wolbachia per cell robust z, rep 1 = -0.331; Wolbachia per cell robust z, rep 2 = -0.0539; Wolbachia per cell robust z, rep 3 = 0.642; inactive.
CG11269 [DRSC04094] gave Wolbachia per cell robust z, rep 1 = -0.203; Wolbachia per cell robust z, rep 2 = -0.382; Wolbachia per cell robust z, rep 3 = -2.96; inactive.
Silencing of CG10413 [DRSC02052] gave: Wolbachia per cell robust z, rep 1 = -0.779; Wolbachia per cell robust z, rep 2 = -0.262; Wolbachia per cell robust z, rep 3 = 0.179; inactive.
Against CG6901 [DRSC16129], the values are Wolbachia per cell robust z, rep 1 = -0.825; Wolbachia per cell robust z, rep 2 = -0.388; Wolbachia per cell robust z, rep 3 = -0.895; inactive.
CG6901 [DRSC26477] scored Wolbachia per cell robust z, rep 1 = -0.982; Wolbachia per cell robust z, rep 2 = -0.712; Wolbachia per cell robust z, rep 3 = -10.4; inactive.
p [DRSC16560] scored Wolbachia per cell robust z, rep 1 = 0.505; Wolbachia per cell robust z, rep 2 = -0.556; Wolbachia per cell robust z, rep 3 = 0.762; inactive.
Against p [DRSC27891], the entry reads Wolbachia per cell robust z, rep 1 = 0.705; Wolbachia per cell robust z, rep 2 = 0.595; Wolbachia per cell robust z, rep 3 = 0.924; inactive.
For eIF2alpha [DRSC20327] the deposit lists Wolbachia per cell robust z, rep 1 = 1.5; Wolbachia per cell robust z, rep 2 = -8.51; Wolbachia per cell robust z, rep 3 = 3.36; active.
Knock-down of CG8673 [DRSC03105] resulted in: Wolbachia per cell robust z, rep 1 = 0.355; Wolbachia per cell robust z, rep 2 = 0.395; Wolbachia per cell robust z, rep 3 = 1.08; inactive.
Against Pa1 [DRSC19422], the entry reads Wolbachia per cell robust z, rep 1 = 1.17; Wolbachia per cell robust z, rep 2 = 0.369; Wolbachia per cell robust z, rep 3 = 0.572; inactive.
After knock-down of Pa1 [DRSC29046] the results were Wolbachia per cell robust z, rep 1 = -2.28; Wolbachia per cell robust z, rep 2 = 0.958; Wolbachia per cell robust z, rep 3 = -0.0155; inactive.
Against kumpel [DRSC14883], the values are Wolbachia per cell robust z, rep 1 = -4.46; Wolbachia per cell robust z, rep 2 = 0.731; Wolbachia per cell robust z, rep 3 = -0.0103; inactive.
kumpel [DRSC16459] gave Wolbachia per cell robust z, rep 1 = 0.731; Wolbachia per cell robust z, rep 2 = 0.471; Wolbachia per cell robust z, rep 3 = 0.308; inactive.
kumpel [DRSC16460] showed Wolbachia per cell robust z, rep 1 = 0.687; Wolbachia per cell robust z, rep 2 = -0.921; Wolbachia per cell robust z, rep 3 = 0.143; inactive.
Knock-down of kumpel [DRSC16461] gave: Wolbachia per cell robust z, rep 1 = 0.735; Wolbachia per cell robust z, rep 2 = -1.79; Wolbachia per cell robust z, rep 3 = 0.709; inactive.
For kumpel [DRSC16462], the entry reads Wolbachia per cell robust z, rep 1 = 0.306; Wolbachia per cell robust z, rep 2 = -0.385; Wolbachia per cell robust z, rep 3 = 0.601; inactive.
Silencing of kumpel [DRSC16463] resulted in: Wolbachia per cell robust z, rep 1 = 0.35; Wolbachia per cell robust z, rep 2 = -0.0449; Wolbachia per cell robust z, rep 3 = -0.59; inactive.
kumpel [DRSC25593] showed Wolbachia per cell robust z, rep 1 = 0.465; Wolbachia per cell robust z, rep 2 = -0.376; Wolbachia per cell robust z, rep 3 = -0.118; inactive.
With knock-down of kumpel [DRSC27664], the record shows Wolbachia per cell robust z, rep 1 = -0.451; Wolbachia per cell robust z, rep 2 = -1.37; Wolbachia per cell robust z, rep 3 = 0.503; inactive.

Reprinted from above (5 entries):
indra [DRSC26845] → Wolbachia per cell robust z, rep 1: -1.3; Wolbachia per cell robust z, rep 2: -0.802; Wolbachia per cell robust z, rep 3: -0.537; Call: inactive
CG8066 [DRSC16374] → Wolbachia per cell robust z, rep 1: 0.857; Wolbachia per cell robust z, rep 2: -1.09; Wolbachia per cell robust z, rep 3: 0.33; Call: inactive
CG8066 [DRSC24633] → Wolbachia per cell robust z, rep 1: 0.34; Wolbachia per cell robust z, rep 2: 0.311; Wolbachia per cell robust z, rep 3: -0.873; Call: inactive
RpS28a [DRSC15064] → Wolbachia per cell robust z, rep 1: 0.398; Wolbachia per cell robust z, rep 2: 0.567; Wolbachia per cell robust z, rep 3: -3.9; Call: inactive
upd3 [DRSC19636] → Wolbachia per cell robust z, rep 1: -3; Wolbachia per cell robust z, rep 2: -0.444; Wolbachia per cell robust z, rep 3: -0.215; Call: inactive
